{"source": "PubChem BioAssay AID720596", "about": "(The Scripps Research Institute Molecular Screening Center, 2013)", "note": "Only a part is listed here, and it is no random draw. Activity calls are given as the source filed them. Cut-off read from the data, not from the text of the source: active = inhibition above about 24%; inactive = the rest."}
{"molecular_target": "Major prion protein (Homo sapiens) (UniProt P04156)", "assay": "inhibitors of human cell surface prion protein PrPC, primary screen, cell-based, TR-FRET (AID 720596); note: 0% = median of the test wells and 100% = reference compound wells", "details": "TR-FRET read-out, at 13.8 µM, stronger effect = higher value"}
{"smiles": "O=[N+]([O-])c1cc([N+](=O)[O-])c(Nc2nnnn2CCO)c([N+](=O)[O-])c1", "inhibition": "inactive: -22.3%"}
{"smiles": "CCOC(=O)C(CC)C1=NC(C)(C)Cc2ccccc21.O=[N+]([O-])c1cc([N+](=O)[O-])c(O)c([N+](=O)[O-])c1", "note": "(stereo not drawn)", "inhibition": "inactive: -12%"}
{"smiles": "CN1CCCCC1COC(=O)C1(O)c2ccccc2CCc2ccccc21", "note": "(stereo not drawn)", "inhibition": "inactive: -9.86%"}
{"smiles": "COc1ccccc1OP(C)(=O)Nc1c(C)cccc1C", "note": "(stereo not drawn)", "inhibition": "inactive: 1.61%"}
{"smiles": "COc1ccc(-c2ccccn2)cc1.O=[N+]([O-])c1cc([N+](=O)[O-])c(O)c([N+](=O)[O-])c1", "inhibition": "inactive: -13.1%"}
{"smiles": "CCCOc1ccc(NP(C)(=O)Oc2ccc(Cl)cc2)cc1", "note": "(stereo not drawn)", "inhibition": "inactive: 1.53%"}
{"smiles": "CP(=O)(Nc1ccc(SC(F)(F)F)cc1)Oc1ccccc1", "note": "(stereo not drawn)", "inhibition": "inactive: 2.51%"}
{"smiles": "O=[N+]([O-])c1cc([N+](=O)[O-])c(-n2nnc3ccccc32)c([N+](=O)[O-])c1", "inhibition": "inactive: -13.1%"}
{"smiles": "CN(Cc1cccnc1)C(=O)COc1ccc(Cl)c(Cl)c1.O=[N+]([O-])c1cc([N+](=O)[O-])c(O)c([N+](=O)[O-])c1", "inhibition": "inactive: -12.1%"}
{"smiles": "O=[N+]([O-])c1cc([N+](=O)[O-])c(-c2cnn(-c3ccccc3)c2)c([N+](=O)[O-])c1", "inhibition": "inactive: -45.6%"}
{"smiles": "Cc1nc2ccc3ccccc3c2s1.O=[N+]([O-])c1cc([N+](=O)[O-])c(O)c([N+](=O)[O-])c1", "inhibition": "inactive: -27.4%"}
{"smiles": "COc1ccccc1OP(C)(=O)Nc1cccc(Br)c1", "note": "(stereo not drawn)", "inhibition": "inactive: 0.35%"}
{"smiles": "CCOC(=O)c1ccc(NP(C)(=O)Oc2cc(C)cc(C)c2)cc1", "note": "(stereo not drawn)", "inhibition": "inactive: 4.24%"}
{"smiles": "Cc1cc(C)cc(OP(C)(=O)Nc2ccc(C)cc2C)c1", "note": "(stereo not drawn)", "inhibition": "inactive: 0.49%"}
{"smiles": "Cc1ccc(C)c(NP(C)(=O)Oc2ccccc2)c1", "note": "(stereo not drawn)", "inhibition": "inactive: -4.05%"}
{"smiles": "Cc1cc(C)cc(OP(C)(=O)Nc2ccccn2)c1", "note": "(stereo not drawn)", "inhibition": "inactive: 2.58%"}
{"smiles": "CP(=O)(Nc1cccc(Br)c1)Oc1ccccc1", "note": "(stereo not drawn)", "inhibition": "inactive: 14.1%"}
{"smiles": "O=C(O)c1cccc(Nc2c([N+](=O)[O-])cc([N+](=O)[O-])cc2[N+](=O)[O-])c1", "inhibition": "inactive: -36.6%"}
{"smiles": "CC1=NCCc2c1[nH]c1ccccc21.O=[N+]([O-])c1cc([N+](=O)[O-])c(O)c([N+](=O)[O-])c1", "inhibition": "inactive: -11.4%"}
{"smiles": "O=[N+]([O-])c1cc([N+](=O)[O-])c(Nc2cccnc2)c([N+](=O)[O-])c1", "inhibition": "inactive: -28.8%"}
{"smiles": "O=[N+]([O-])c1ccc2c(c1)C=Nc1ccccc1O2", "inhibition": "inactive: -24.4%"}
{"smiles": "CC(C)(C)c1ccc(OP(C)(=O)Nc2ccc(SC(F)(F)F)cc2)cc1", "note": "(stereo not drawn)", "inhibition": "inactive: -2.69%"}
{"smiles": "Cc1cccc(C)c1OP(C)(N)=O", "note": "(stereo not drawn)", "inhibition": "inactive: 4.06%"}
{"smiles": "COc1ccccc1OP(C)(=O)Nc1ccc(C)cc1", "note": "(stereo not drawn)", "inhibition": "inactive: 1.02%"}
{"smiles": "Cc1ccc(NP(C)(=O)Oc2ccccc2)c(C)c1", "note": "(stereo not drawn)", "inhibition": "inactive: 4.59%"}
{"smiles": "CCOC(=O)c1ccc(NP(C)(=O)Oc2ccccc2)cc1", "note": "(stereo not drawn)", "inhibition": "inactive: 1.81%"}
{"smiles": "Cc1cc(C)cc(OP(C)(N)=O)c1", "note": "(stereo not drawn)", "inhibition": "inactive: 7.45%"}
{"smiles": "COc1ccccc1OP(C)(=O)Nc1cc(Cl)ccc1C", "note": "(stereo not drawn)", "inhibition": "inactive: 4.99%"}
{"smiles": "COc1ccc(OP(C)(=O)Nc2cccc(F)c2)cc1", "note": "(stereo not drawn)", "inhibition": "inactive: 3.18%"}
{"smiles": "CCN(CC)CCCOC(=O)C(O)(c1ccccc1)c1ccccc1", "inhibition": "inactive: -0.23%"}
{"smiles": "COc1ccccc1-c1ccccn1.O=[N+]([O-])c1cc([N+](=O)[O-])c(O)c([N+](=O)[O-])c1", "inhibition": "inactive: -15.6%"}
{"smiles": "CP(=O)(Nc1ccc(SC(F)(F)F)cc1)Oc1ccc(Cl)cc1", "note": "(stereo not drawn)", "inhibition": "inactive: -3.7%"}
{"smiles": "Cc1cccc(C)c1OP(C)(=O)Nc1ccc(SC(F)(F)F)cc1", "note": "(stereo not drawn)", "inhibition": "inactive: 2.19%"}
{"smiles": "CP(=O)(Oc1ccccc1)OC(c1ccccc1)C(F)(F)F", "note": "(stereo not drawn)", "inhibition": "inactive: 3.47%"}
{"smiles": "CP(=O)(NC(=O)Nc1ccccc1)Oc1ccccc1", "note": "(stereo not drawn)", "inhibition": "inactive: 3.37%"}
{"smiles": "CCc1ccc(OP(C)(=O)N2CCN(c3ccc([N+](=O)[O-])cc3)CC2)cc1", "note": "(stereo not drawn)", "inhibition": "inactive: -21%"}
{"smiles": "Cc1cc(C)cc(OP(C)(=O)Nc2ccc(SC(F)(F)F)cc2)c1", "note": "(stereo not drawn)", "inhibition": "inactive: -9.87%"}
{"smiles": "O=[N+]([O-])c1cc([N+](=O)[O-])c(O)c([N+](=O)[O-])c1.c1ccc(Oc2ccncc2)cc1", "inhibition": "inactive: -23.8%"}
{"smiles": "CCOC(=O)c1ccc(NP(C)(=O)Oc2ccc(OC)cc2)cc1", "note": "(stereo not drawn)", "inhibition": "inactive: 6.68%"}
{"smiles": "CCOP(C)(=S)SCC(=O)NC(C)C(=O)O", "note": "(stereo not drawn)", "inhibition": "inactive: -5.05%"}
{"smiles": "CP(=O)(Nc1ccccn1)Oc1ccc(Cl)cc1", "note": "(stereo not drawn)", "inhibition": "inactive: -0.88%"}
{"smiles": "CP(=S)(Nn1cnnc1)Oc1ccccc1", "note": "(stereo not drawn)", "inhibition": "inactive: 0.76%"}
{"smiles": "CP(=O)(Nc1ccccc1Br)Oc1ccccc1", "note": "(stereo not drawn)", "inhibition": "inactive: -1.89%"}
{"smiles": "COc1ccccc1OP(C)(=O)Nc1ccccc1", "note": "(stereo not drawn)", "inhibition": "inactive: 3.82%"}
{"smiles": "Nc1ccc2c(ccc3cccnc32)n1.O=[N+]([O-])c1cc([N+](=O)[O-])c(O)c([N+](=O)[O-])c1", "inhibition": "inactive: -14.5%"}
{"smiles": "CCOC(=O)c1ccc(NP(C)(=O)Oc2ccc(Cl)cc2)cc1", "note": "(stereo not drawn)", "inhibition": "inactive: 8.91%"}
{"smiles": "CP(=O)(OC12CC3CC(CC(C3)C1)C2)OC12CC3CC(CC(C3)C1)C2", "inhibition": "inactive: -6.84%"}
{"smiles": "CCN(CC)CC(O)COC(=O)C(O)(c1ccccc1)C1CCCCC1", "note": "(stereo not drawn)", "inhibition": "inactive: -2.78%"}
{"smiles": "COc1ccc(OP(C)(=O)Nc2ccc(Br)cc2)cc1", "note": "(stereo not drawn)", "inhibition": "inactive: 8.37%"}
{"smiles": "COc1ccccc1OP(C)(=O)Nc1c(C)n(C)n(-c2ccccc2)c1=O", "note": "(stereo not drawn)", "inhibition": "inactive: -4.14%"}
{"smiles": "O=C(OCCCN1CCCC1)C(O)(c1ccccc1)C1CCCCC1", "note": "(stereo not drawn)", "inhibition": "inactive: -0.79%"}
{"smiles": "CP(=O)(Oc1ccccc1)N1CCOC1=O", "note": "(stereo not drawn)", "inhibition": "inactive: -2.29%"}
{"smiles": "CCc1ccc(OP(C)(=O)Nc2cccnc2)cc1", "note": "(stereo not drawn)", "inhibition": "inactive: -8.6%"}
{"smiles": "COc1ccccc1OP(C)(=O)Nc1ccccc1Br", "note": "(stereo not drawn)", "inhibition": "inactive: 6.46%"}
{"smiles": "CC(C)(C)c1ccc(OP(C)(=O)O)cc1", "inhibition": "inactive: 2.47%"}
{"smiles": "CP(=O)(Nc1ccc(Cl)cc1)Oc1ccc(F)cc1", "note": "(stereo not drawn)", "inhibition": "inactive: 11.1%"}
{"smiles": "CN(C)C(=O)c1c([N+](=O)[O-])cc([N+](=O)[O-])cc1[N+](=O)[O-]", "inhibition": "inactive: -33.4%"}
{"smiles": "COc1ccccc1OP(C)(=O)Nc1ccc(Br)cc1", "note": "(stereo not drawn)", "inhibition": "inactive: 7.11%"}
